Tests used:
Test in all cases: pull-down binding Z-score (relative to library population); higher = stronger binding
Conditions in all cases: RNA library: Library-2
[1] = test system: TO-N3-2 (biotin conjugate)
How it was run: (§1)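 A heat-folded, dye-end-labelled (Cy5 or Cy3) RNA library (1 μg, phosphate/NaCl/KCl buffer) was exposed for 60 min at 25 °C to streptavidin beads holding 100 pmol of biotin-conjugated small molecule. RNA retained on the beads was eluted in hot SDS and hybridised to a DNA barcode microarray for 20 h at 55.5 °C. Binding scores were Z-scores against the library mean and standard deviation, calculated after subtracting beads alone and taking trimmed means of replicate probes.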

[2] = test system: TO-3-N3 (biotin conjugate)
How it was run: as §1

TO-N3 (biotin conjugate) = test system: TO-N3 (biotin conjugate)
How it was run: as §1

[3] = test system: TO-3-N3-2 (biotin conjugate)
How it was run: as §1

Row | Sequence | pull-down binding Z-score [1] | pull-down binding Z-score [2] | pull-down binding Z-score (TO-N3 (biotin conjugate)) | pull-down binding Z-score [3]
1 | ACUAACAUAGU [SHAPE_invitro_SARS-CoV-2_Motif_134] | -1.5 | -0.305 | -0.7 | -0.605
2 | ACUACACAAUUGGAAUUGUGUUAAUUGUGAUACAUUCUGUGCUGGUAGU [DMSMaPseq_invitro_SARS-CoV-2_Motif_143] | -0.877 | 0.343 | 0.171 | -0.0221
3 | ACUACGAAAACAAAUACGUAGU | -0.681 | -0.323 | -0.414 | 0.103
4 | ACUACUAACAUAGU [DMSMaPseq_invitro_SARS-CoV-2_Motif_126] | -0.996 | 0.121 | -0.341 | -0.202
5 | ACUAUAACACAUAUAAAAAUACGUGUGAUGGU | -1.59 | -1.06 | -1.42 | -0.578
6 | ACUAUUGUAUACCUUACAAUAGU | -1.86 | -0.962 | -1.36 | -0.514
7 | ACUCAAUAUGAGU | -0.711 | 1.39 | 1.2 | 0.00175
8 | ACUCACUGUCUUUUUUGAUGGUAGAGU | -1.25 | -0.149 | -0.43 | -0.268
9 | ACUCGUGUAUUGAAACGAUGGAGGUUGUUCAGCAAACACGAGU [IAV_invivo_PB1_2_Motif_7+IAV_invivo_PB1_2_Motif_7] | -0.686 | 0.495 | 0.435 | -0.124
10 | ACUGAAAGUAAACCUUCAGU [SHAPE_invitro_SARS-CoV-2_Motif_71] | -1.05 | -0.852 | -1.19 | -0.536
11 | ACUGUAGCUGCAUUUCACCAAGAAUGUAGUUUACAGU [SHAPE_invivo_SARS-CoV-2_Motif_528] | -1.86 | -0.817 | -1.19 | -0.583
12 | ACUGUGUAUGAUGAUGGU [SHAPE_invitro_SARS-CoV-2_Motif_210] | -0.247 | 0.258 | 0.279 | 0.191
13 | ACUGUUUGUGGACCUAAAAAGUCUACUAAUUUGGU [DMSMaPseq_invitro_SARS-CoV-2_Motif_410] | -1.17 | -0.536 | -0.733 | -0.426
14 | ACUUAAGGAUUGUCCAGCUGUUGCUAAACAUGACUUCUUUAAGU | -0.914 | 0.011 | -0.16 | -0.0785
15 | ACUUUAUUAUGAUUCAAUGAGUUAUGAGGAUCAAGAUGCACUUUUCGCAUAUACAAAACGUAAUGUCAUCCCUACUAUAACUCAAAUGAAUCUUAAGU | -0.345 | 0.832 | 0.709 | -0.152
16 | ACUUUUGAUUCUGAGU | -0.597 | 1.06 | 0.725 | 0.148
17 | AGAAAGACAAUUCU | -0.466 | 0.387 | 0.0897 | -0.225
18 | AGAAAUCAAUACUGAGUCCUCUUUAUGCAUUUGCAUCAGAGGCUGCUCGUGUUGUACGAUCAAUUUUCU [DMSMaPseq_invitro_SARS-CoV-2_Motif_37] | -0.223 | 0.44 | 0.279 | 0.157
19 | AGAAGCUGCUCGGUAUAUGAGAUCUCUCAAAGUGCCAGCUACAGUUUCU | 1.38 | 0.774 | 0.939 | 0.656
20 | AGACAUCAUGCUAAUGAGUACAGAUUGUAUCUCGAUGCUUAUAACAUGAUGAUCU | 1.46 | -0.306 | -0.0243 | 0.0465
21 | AGACUCAUCUCUAUGAUGGGUUU [DMSMaPseq_invitro_SARS-CoV-2_Motif_324] | -1.43 | 0.0922 | -0.252 | -0.67
22 | AGAGAAUUACAUCU [SHAPE_invivo_SARS-CoV-2_Motif_316] | -1.04 | 0.112 | -0.156 | -0.281

Row | Sequence | pull-down binding Z-score [1] | pull-down binding Z-score [2] | pull-down binding Z-score (TO-N3 (biotin conjugate)) | pull-down binding Z-score [3]
23 | AGAGAUCGCCAUUAUUUUGGCAUCUUU [SHAPE_invivo_SARS-CoV-2_Motif_33] | -1.09 | -0.338 | -0.607 | -0.287
24 | AGAGCAAAAUGUCUGGUAAAGGCCAACAACAACAAGGCCAAACUGUCACUAAGAAAUCUGCUGCUGAGGCUUCUAAGAAGCCUCGGCAAAAACGUACUGCCACU | 0.718 | -0.669 | -0.139 | -0.0489
25 | AGAGCUAGGUGUUGUACAUAAUCAGGAUGUAAACUUACAUAGCUCU | 0.268 | -0.328 | -0.459 | -0.4
26 | AGAGCUGCAGAAAUCAGAGCUUCUGCUAAUCU [DMSMaPseq_invitro_SARS-CoV-2_Motif_438] | -0.245 | -0.836 | -0.836 | -0.314
27 | AGAGUGAGUAAGAUACUUACCUG [U1snRNP5ss-17] | 2.21 | 0.232 | 1.2 | 0.337
28 | AGAGUUGAAGUUUAAUCCACCUGCUCUACAAGAUGCUUAUUACAGAGCAAGGGCUGGUGAAGCUGCUAACUUU | 0.771 | -0.373 | 0.316 | 0.235
29 | AGAGUUUAUUCUAGUGCGAAUAAUUGCACUUUUGAAUAUGUCUCU [SHAPE_invivo_SARS-CoV-2_Motif_414] | -1.12 | -0.752 | -0.99 | -0.248
30 | AGAUAAAUAUUUUAAGAAUCAUACAUCACCAGAUGUUGAUUUAGGUGACAUCU | 0.224 | 0.515 | 0.372 | 0.599
31 | AGAUACUACUGAAGCCUUUGAAAAAAUGGUUUCACUACUUUCU [SHAPE_invivo_SARS-CoV-2_Motif_226] | -0.963 | -0.232 | -0.383 | -0.49
32 | AGAUAUUACUAAUUAUUAUGAGGACUUUUAAAGUUUCCAUUUGGAAUCUUGAUUACAUCAUAAACCUCAUAAUUAAAAAUUUAUCU | -0.725 | -0.532 | -0.706 | 0.0434
33 | AGAUCGCCAUUAUUUUGGCAUCU | -1.2 | -0.13 | -0.432 | -0.218
34 | AGAUGCUUCUGGUAAGCCAGUACCAUAUUGUUAUGAUACCAAUGUACUAGAAGGUUCU | -0.0854 | 0.592 | 0.594 | 0.0988
35 | AGAUGGAAUUUCACAGUAUUCACUGAGACUCAUUGAUGCUAUGAUGUUCACAUCU [SHAPE_invitro_SARS-CoV-2_Motif_39] | -0.722 | -0.431 | -0.347 | -0.204
36 | AGAUUGGUCCUAUUCUGGACAAUCU | -0.819 | 0.176 | -0.512 | -0.412
37 | AGCAGCUGGUACGGACACAACUAUUACAGUUAAUGUUUUAGCUUGGUUGUACGCUGCU [DMSMaPseq_invitro_SARS-CoV-2_Motif_191] | 0.368 | 0.519 | 0.53 | -0.143
38 | AGCAUCUACAGAUACUUGUUUUGCU [DMSMaPseq_invitro_SARS-CoV-2_Motif_159] | -1.05 | -0.284 | -0.496 | -0.512
39 | AGCCAUCCUUACUGCGCU [DMSMaPseq_invitro_SARS-CoV-2_Motif_473] | 0.261 | -0.674 | -0.487 | -0.379
40 | UUGAACAUGUUACCUUCUUCAUCUACAAUAAAAUUGUUGAUGAGCCUGAAGAACAUGUCCAA [DMSMaPseq_invitro_SARS-CoV-2_Motif_469] | -0.961 | -0.0243 | – | 0.0769
41 | UUGACCGCCUCAAUGAGGUUGCCAA | -0.925 | -0.712 | – | -0.423
42 | UUGACUAUACAGAAAUUUCAUUUAUGCUUUGGUGUAAAGAUGGCCAUGUAGAAACAUUUUACCCAAAAUUACAAUCUAGUCAA [SHAPE_invivo_SARS-CoV-2_Motif_386] | -0.668 | -0.238 | – | 0.0463
43 | UUGACUGUAGUGCGCGUCAUAUUAAUGCGCAGGUAGCAA [DMSMaPseq_invitro_SARS-CoV-2_Motif_152] | 0.18 | -0.59 | – | -0.346
44 | UUGAUGAAAUUUCAA | -1.51 | -0.158 | – | -0.362

From the supplement of paper PMC11865577
